{"sequences": {"note": "Protein sequences, listed by entry. Tags and fused reporters are not part of them.", "UniProt P0DTC4, whole entry": "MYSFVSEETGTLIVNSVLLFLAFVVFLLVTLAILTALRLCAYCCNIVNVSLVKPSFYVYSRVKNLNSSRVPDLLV"}, "source": "paper PMC8190750", "about": "(Cell Research, 2021)", "key": {"C57BL/6 mice": {"tested_on": "C57BL/6 mice", "experiment": "In vivo dose range toxicity study"}, "[1]": {"experiment": "Tissue distribution assay in mice", "format": "in vivo, ICR male mice", "settings": "oral administration, LC-MS/MS"}, "SARS-CoV-2 [2]": {"tested_on": "SARS-CoV-2", "experiment": "In vivo antiviral efficacy in SARS-CoV-2-infected hACE-2 mice"}, "2-E protein [3]": {"target": "T1, 2-E protein (Severe acute respiratory syndrome coronavirus 2, UniProt P0DTC4)", "experiment": "Planar lipid bilayer recording, inhibition of 2-E channel activity", "format": "biochemical, SARS-CoV-2", "settings": "read-out: IC50 Channel inhibition"}, "Vero E6 cells": {"tested_on": "Vero E6 cells", "experiment": "Cytotoxicity (CCK-8)"}, "[4]": {"experiment": "In vivo pharmacokinetics in mice", "settings": "C57BL/6 mice"}, "SARS-CoV-2 [5]": {"tested_on": "SARS-CoV-2", "experiment": "Viral inhibition assay in Vero E6 cells (viral RNA copy by qRT-PCR)", "format": "cell-based"}, "[6]": {"tested_on": "2-E-induced cell death in Vero E6 cells", "experiment": "Cell protection against 2-E-induced cell death (CCK-8)", "format": "cell-based, African green monkey"}, "2-E protein [7]": {"target": "T1, 2-E protein", "experiment": "SPR binding assay"}, "[8]": {"settings": "read-out: IC50 Anti-virus, 24 h post infection, viral RNA copy in cell supernatant by qRT-PCR"}, "[9]": {"settings": "read-out: IC50 Cell protection, Vero E6 cell survival rate at 24 h post transfection"}, "[10]": {"settings": "read-out: IC50 Anti-virus, 24 h post infection, viral RNA copy in cell supernatant by qRT-PCR, tested form: HCl"}, "[11]": {"settings": "read-out: IC50 Cell protection, Vero E6 cell survival rate at 24 h post transfection, tested form: HCl"}}, "note": "Read-outs that look alike come from different tables or passages of the source.", "data": [{"smiles": "CCCCNC(=O)Oc1ccc2cc1Oc1ccc(cc1)CC1c3cc(c(OC)cc3CCN1C)Oc1c(OC)c(OC)cc3c1C(C2)N(C)CC3", "note": "(stereo not drawn)", "values": [{"measurement": "toxicity observation", "setting": "C57BL/6 mice; 5 mg/kg or 10 mg/kg group, once-daily tail vein injection, 5 days", "result": "No obvious toxicity was observed"}, {"measurement": "locomotor activity", "setting": "C57BL/6 mice; 50 mg/kg administration group, repeat dose tail vein injection", "result": "a pronounced decrease in locomotor activity was observed"}, {"measurement": "body weight compared with the control group", "setting": "C57BL/6 mice; up to 50 mg/kg, repeat dose tail vein injection", "result": "No significant changes in body weight were observed"}, {"measurement": "concentration in the lungs after treatment", "setting": "[1]", "result": 100000, "unit": "ng/g"}, {"measurement": "gross lung lesions at necropsy (interstitial pneumonia symptoms)", "setting": "SARS-CoV-2 [2]; 5 mg/kg", "result": "could relieve these symptoms"}, {"measurement": "lung histopathology (H&E)", "setting": "SARS-CoV-2 [2]; 5 mg/kg", "result": "only few observed eosins in the lungs and minor damage of mouse lung"}, {"measurement": "survival at end of study", "setting": "SARS-CoV-2 [2]; 5 mg/kg 2 h prior to or 2 h after infection, 2 × 10^6 TCID50", "result": "all mice were alive"}, {"measurement": "viral RNA in the lung vs control mice", "setting": "SARS-CoV-2 [2]; 5 mg/kg, both therapeutic or preventive administration, qRT-PCR", "result": "a trend toward decreased levels of viral RNA in the lung"}, {"measurement": "edema of spleen", "setting": "SARS-CoV-2 [2]; 5 mg/kg, especially in therapeutic group", "result": "significantly alleviated"}, {"measurement": "body, lung and spleen weight", "setting": "SARS-CoV-2 [2]; 5 mg/kg, prophylactic or therapeutic", "result": "no obvious changes were observed"}, {"measurement": "mRNA levels of inflammatory cytokines and chemokines in the left lung", "setting": "SARS-CoV-2 [2]; 5 mg/kg, qRT-PCR", "result": "significantly lower levels of inflammatory cytokines and partial chemokines than infected mice"}, {"measurement": "IL-6, IL-1RA and IL-1β in the left lung", "setting": "SARS-CoV-2 [2]; 5 mg/kg, therapeutic and preventive groups", "result": "decreased"}, {"measurement": "IC50", "setting": "2-E protein [3]", "result": 5.79, "unit": "µM"}, {"measurement": "cytotoxicity (in words)", "setting": "Vero E6 cells", "result": "negligible cytotoxicity"}, {"measurement": "AUCINF_obs", "setting": "[4]; 2.5 mg/kg iv", "result": "1405 ± 393", "unit": "ng·h/mL"}, {"measurement": "AUClast", "setting": "[4]; 2.5 mg/kg iv", "result": "1324 ± 330", "unit": "ng·h/mL"}, {"measurement": "CL", "setting": "[4]; 2.5 mg/kg iv", "result": "31.10 ± 7.90", "unit": "mL/min/kg"}, {"measurement": "MRTINF_obs", "setting": "[4]; 2.5 mg/kg iv", "result": "7.53 ± 1.90", "unit": "h"}, {"measurement": "T1/2", "setting": "[4]; 2.5 mg/kg iv", "result": "5.67 ± 1.09", "unit": "h"}, {"measurement": "Vss_obs", "setting": "[4]; 2.5 mg/kg iv", "result": "13.535 ± 1.699", "unit": "L/kg"}, {"measurement": "F (bioavailability)", "setting": "[4]; 10 mg/kg po vs 2.5 mg/kg iv", "result": 51, "unit": "%"}, {"measurement": "AUCINF_obs", "setting": "[4]; 10 mg/kg po", "result": "2776 ± 806", "unit": "ng·h/mL"}, {"measurement": "AUClast", "setting": "[4]; 10 mg/kg po", "result": "2699 ± 791", "unit": "ng·h/mL"}, {"measurement": "MRTINF_obs", "setting": "[4]; 10 mg/kg po", "result": "6.67 ± 0.47", "unit": "h"}, {"measurement": "T1/2", "setting": "[4]; 10 mg/kg po", "result": "4.45 ± 0.67", "unit": "h"}, {"measurement": "Tmax", "setting": "[4]; 10 mg/kg po", "result": "0.25 ± 0.00", "unit": "h"}, {"measurement": "Cmax", "setting": "[4]; 10 mg/kg po, plasma", "result": "497 ± 80", "unit": "ng/mL"}, {"measurement": "IC50", "setting": "SARS-CoV-2 [5]; [8]", "result": 0.94, "unit": "µM"}, {"measurement": "IC50", "setting": "[6]; [9]", "result": 0.01, "unit": "µM"}, {"measurement": "binding to 2-E channels", "setting": "2-E protein [7]", "result": "validated"}]}, {"smiles": "COc1cc2c3cc1Oc1c(OC)c(OC)cc4c1C(Cc1ccc(OC(=O)CCCCC5CCSS5)c(c1)Oc1ccc(cc1)CC3N(C)CC2)N(C)CC4", "note": "(stereo not drawn)", "values": [{"measurement": "IC50", "setting": "2-E protein [3]", "result": 12.9, "unit": "µM"}, {"measurement": "IC50", "setting": "SARS-CoV-2 [5]; [8]", "result": 1.5, "unit": "µM"}, {"measurement": "IC50", "setting": "[6]; [9]", "result": 0.04, "unit": "µM"}]}, {"smiles": "COc1cc2c3cc1Oc1c(OC)c(OC)cc4c1[C@@H](Cc1ccc(CO)c(c1)Oc1ccc(cc1)C[C@@H]3N(C)CC2)N(C)CC4", "values": [{"measurement": "IC50", "setting": "2-E protein [3]; tested form: HCl", "result": 12.4, "unit": "µM"}, {"measurement": "IC50", "setting": "SARS-CoV-2 [5]; [10]", "result": 1.12, "unit": "µM"}, {"measurement": "IC50", "setting": "[6]; [11]", "result": 4.9, "unit": "µM"}]}, {"smiles": "COc1cc2c3cc1Oc1c(OC)c(OC)cc4c1[C@@H](Cc1ccc(C#N)c(c1)Oc1ccc(cc1)C[C@@H]3N(C)CC2)N(C)CC4", "values": [{"measurement": "IC50", "setting": "2-E protein [3]; tested form: HCl", "result": 1.67, "unit": "µM"}, {"measurement": "IC50", "setting": "SARS-CoV-2 [5]; [10]", "result": 0.7, "unit": "µM"}, {"measurement": "IC50", "setting": "[6]; [11]", "result": 0.28, "unit": "µM"}]}]}
